{"source": "patent US20220193209A1", "about": "“COMPOSITIONS AND METHODS FOR REACTIVATING LATENT IMMUNODEFICIENCY VIRUS AND/OR TREATING IMMUNODEFICIENCY VIRUS INFECTION” (The J. David Gladstone institutes, a testamentary trust …, priority 2019, published 2022)", "tested_on": "primary CD4+ T cells", "assay": "RNA-Seq of primary CD4+ T cells", "assay_type": "cell-based, human", "key": {"[1]": {"details": "1000 nM vs DMSO, 48 hours, q<0.05"}}}
{"smiles": "CCn1cc(C(=O)O)c(=O)c2c(N)c(F)c(NC3CCCCC3)cc21", "note": "[AS1842856, 5-amino-7-(cyclohexylamino)-1-ethyl-6-fluoro-4-oxo-1,4-dihydro-quinoline-3-carboxylic acid]", "values": [{"measurement": "genes significantly down-regulated", "setting": "[1]", "result": 160, "unit": "genes"}, {"measurement": "genes significantly up-regulated", "setting": "[1]", "result": 172, "unit": "genes"}, {"measurement": "expression of glycolytic enzymes or FOXO1 itself", "setting": "CD4+ T cells", "result": "did not affect"}]}
